Consider three compounds from ChEMBL document CHEMBL1152129, “Quantitative structure-activity relationship and complex network approach to monoamine oxidase A and B inhibitors” (J Med Chem, 2008).

Sequences of proteins named here, by UniProt entry; tags and fusion partners are left off. Residues count along the entry.
UniProt P21397, whole entry, looked up: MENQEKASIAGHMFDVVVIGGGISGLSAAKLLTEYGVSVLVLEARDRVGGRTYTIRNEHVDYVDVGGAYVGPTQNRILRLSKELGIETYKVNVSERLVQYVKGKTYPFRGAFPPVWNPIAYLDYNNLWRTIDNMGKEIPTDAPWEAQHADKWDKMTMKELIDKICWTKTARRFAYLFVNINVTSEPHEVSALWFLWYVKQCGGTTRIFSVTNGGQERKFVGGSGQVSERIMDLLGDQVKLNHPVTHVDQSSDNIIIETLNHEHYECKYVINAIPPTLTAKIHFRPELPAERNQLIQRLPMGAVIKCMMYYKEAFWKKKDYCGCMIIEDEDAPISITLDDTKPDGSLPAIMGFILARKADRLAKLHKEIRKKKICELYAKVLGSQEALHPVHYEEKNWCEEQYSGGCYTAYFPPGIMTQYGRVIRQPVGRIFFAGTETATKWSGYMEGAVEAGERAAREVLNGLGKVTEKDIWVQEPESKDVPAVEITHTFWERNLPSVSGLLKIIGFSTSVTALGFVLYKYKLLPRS
UniProt P27338, 2-520 limits assumed: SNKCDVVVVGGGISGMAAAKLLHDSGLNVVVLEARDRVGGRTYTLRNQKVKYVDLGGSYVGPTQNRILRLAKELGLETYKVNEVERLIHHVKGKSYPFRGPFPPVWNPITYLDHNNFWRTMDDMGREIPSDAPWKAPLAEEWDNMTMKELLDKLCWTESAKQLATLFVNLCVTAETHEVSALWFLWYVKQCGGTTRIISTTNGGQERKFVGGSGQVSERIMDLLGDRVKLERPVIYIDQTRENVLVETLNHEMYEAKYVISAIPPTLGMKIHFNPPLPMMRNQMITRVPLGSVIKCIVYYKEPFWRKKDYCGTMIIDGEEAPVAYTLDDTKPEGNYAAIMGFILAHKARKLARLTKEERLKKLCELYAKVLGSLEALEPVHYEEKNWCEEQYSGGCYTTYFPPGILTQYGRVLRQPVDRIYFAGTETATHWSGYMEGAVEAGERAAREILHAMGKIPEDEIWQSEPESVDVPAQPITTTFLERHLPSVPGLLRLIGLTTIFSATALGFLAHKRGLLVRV

Data set [1] has as its target T1, Amine oxidase [flavin-containing] A (Homo sapiens, UniProt P21397). Description: Inhibition of human recombinant MAOA by fluorimetric method.
The target of data set [2] is T1, Amine oxidase [flavin-containing] A. Description: Inhibition of human recombinant MAOA at 100 uM by fluorimetric method.
The target of data set [3] is Amine oxidase [flavin-containing] B (Homo sapiens, UniProt P27338). As to the kind of experiment: Inhibition of human liver MAOB.
For data set [4], the target named is T1, Amine oxidase [flavin-containing] A. As to the kind of experiment: Inhibition of human liver MAOA.

As to `O[C@@H]([C@H](O)[C@H](O)CNCCCl)[C@H](O)CNCCCl`, in data set [1], the Activity entry is reported as “Not Active”.
On the same count and under the same terms, the result for `O=C(O)Cc1ccc(N(CCCl)CCCl)cc1` reads “Not Active”.
`O=P(NCCCO)(OCCCl)N(CCCl)CCCl` (stereo not given): the Activity result in data set [2], in data set [3] and in data set [4] was “Not Active” in each case.
